Data reported in PubChem BioAssay AID743093 (The Scripps Research Institute Molecular Screening Center, 2013).
The list shows a part of the results, in another mix than the full data. Activity calls are given as the source filed them.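 Rule for the calls: active = inhibition above the mean plus 3 SD of compounds within the control limits, set per campaign (cut at about 38% in these data); inactive = the rest.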

experiment: late stage P. falciparum gametocyte viability inhibitors, primary screen, ATP luminescence, HTS (AID 743093);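 note: 0% = DMSO wells and 100% = medium only without gametocytes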; settings: P. falciparum stage V gametocytes, 24 h, at 10.9 µM, hits give high values

| SMILES | inhibition |
| --- | --- |
| COc1ccc(CN(CCCl)CCCl)cc1Cl | inactive: 8.38% |
| CC(C)c1ccc(NC2CCN(C(=O)OC(C)(C)C)CC2)cc1 | inactive: 4.54% |
| CN1CCN(CCOC(=O)C(O)(c2ccccc2)c2ccccc2)CC1 | inactive: -6.07% |
| COc1ccc(NC2CCN(C(=O)OC(C)(C)C)CC2)cc1 | inactive: -2.01% |
| O=C(NCC1(N2CCOCC2)CCCCC1)c1cc(=O)[nH]c2ccccc12 | inactive: 6.96% |
| O=C(NCC1(N2CCCCC2)CCCCC1)c1cccc([N+](=O)[O-])c1 | inactive: 15.6% |
| CCN1CCC(Nc2ccc(Cl)cc2)CC1 | inactive: 8.35% |
| CCOC(=O)N1CCC(Nc2cccc(C)c2)CC1 | inactive: -7.48% |
| COc1ccc(NC2CCN(CCc3ccccc3)CC2)c(OC)c1 | inactive: -0.68% |
| CCOC(=O)N1CCC(Nc2ccc(F)cc2)CC1 | inactive: -0.01% |
| CCOc1ccc(C)cc1CN(CCCl)CCCl | inactive: -8.19% |
| N#CC1(Nc2ccccc2)CCN(Cc2ccccc2)CC1 | inactive: 9.64% |
| COc1ccc(C(=O)NCC2(N3CCCCC3)CCCCC2)c(OC)c1OC | inactive: 5.73% |
| CN1CCC(Nc2ccc(Cl)cc2)CC1 | inactive: -23.7% |
| COc1cc(OC)cc(C(=O)NCC2(N3CCOCC3)CCCCC2)c1 | inactive: 0.9% |
| CC(C)(C)OC(=O)N1CCC(Nc2ccccc2)CC1 | inactive: 19.8% |
| CN1CCC(Nc2ccc(F)c(Cl)c2)CC1 | inactive: -5.9% |
| CN(C)c1ccc(C(=O)NCC2(N3CCCCC3)CCCCC2)cc1 | inactive: -2.63% |
| Fc1ccccc1NC1CCN(Cc2ccccc2)CC1 | inactive: 15.9% |
| CCCN1CCC(Nc2cc(OC)cc(OC)c2)CC1 | inactive: -34.9% |
| O=C(OC1CN2CCC1CC2)C1c2ccccc2C=Cc2ccccc21 (centres undefined) | inactive: -9.42% |
| N/C(=N\O)c1c(N)no[n+]1[O-] | inactive: 10.9% |
| CCOC(=O)N1CCC(Nc2ccc(C)cc2)CC1 | inactive: 14.7% |
| COc1ccc(C(=O)NCC2(N3CCOCC3)CCCCC2)cc1OC | inactive: 7.98% |
